For 65 compounds, inhibition results are on record in PubChem BioAssay AID602123 (The Scripps Research Institute Molecular Screening Center, 2011).

The chains behind the UniProt entries cited, without tags or fusion partners.
UniProt P0A9M0, whole entry, looked up: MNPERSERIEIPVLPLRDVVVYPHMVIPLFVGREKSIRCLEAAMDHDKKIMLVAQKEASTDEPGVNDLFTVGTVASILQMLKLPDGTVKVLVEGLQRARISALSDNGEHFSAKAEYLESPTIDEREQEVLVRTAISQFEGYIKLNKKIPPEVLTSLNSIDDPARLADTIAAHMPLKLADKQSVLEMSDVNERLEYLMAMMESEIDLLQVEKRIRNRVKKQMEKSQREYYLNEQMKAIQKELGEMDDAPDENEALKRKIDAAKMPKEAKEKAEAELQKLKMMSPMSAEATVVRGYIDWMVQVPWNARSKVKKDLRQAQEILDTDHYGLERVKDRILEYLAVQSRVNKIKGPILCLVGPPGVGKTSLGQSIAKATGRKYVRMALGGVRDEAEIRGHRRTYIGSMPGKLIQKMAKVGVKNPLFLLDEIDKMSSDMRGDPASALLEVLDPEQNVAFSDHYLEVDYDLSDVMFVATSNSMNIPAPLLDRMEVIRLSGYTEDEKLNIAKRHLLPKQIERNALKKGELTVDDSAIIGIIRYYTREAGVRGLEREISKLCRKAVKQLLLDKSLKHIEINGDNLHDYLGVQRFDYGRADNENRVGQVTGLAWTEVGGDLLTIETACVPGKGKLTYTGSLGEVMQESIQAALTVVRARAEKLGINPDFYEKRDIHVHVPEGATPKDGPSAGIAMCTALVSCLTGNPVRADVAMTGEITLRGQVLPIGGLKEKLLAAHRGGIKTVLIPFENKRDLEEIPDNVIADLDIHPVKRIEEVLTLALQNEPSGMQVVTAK

The list shows a part of the results, in another mix than the full data. Active and inactive are the calls of the source. Rule as the data show it: active = inhibition above about 13% (passing the limit was not always enough); inactive = the rest.

For the test, the target named is Lon protease (Escherichia coli (strain K12)) (UniProt P0A9M0). The test can be described thus: inhibitors of E. coli Lon protease, primary screen, biochemical, fluorescence polarization (AID 602123).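 Also: 0% = enzyme with probe and DMSO and 100% = no enzyme.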 The conditions noted are these: purified E. coli Lon protease, at 7.94 µM, hits give high values.
In general, inhibition refers to the relative decrease from the control value, in per cent. `COc1ccc(N/C(=N/P(=O)(N2CCOCC2)N2CCOCC2)N2CCOCC2)cc1`: the inhibition is inactive: 6.99%. With `O=[N+]([O-])c1cc(Oc2ccc([N+](=O)[O-])cc2C(F)(F)F)cc([N+](=O)[O-])c1` the figure was inactive: -9.93%. With `COc1cc(I)ccc1[As](=O)(O)O` the figure was inactive: 2.09%; with `COc1ccc2nc(NP(=O)(c3ccccc3)c3ccccc3)sc2c1`, inactive: 5.44%. With `O=P1(N(CCCl)CCCl)Nc2ccccc2N1`, the inhibition was inactive: -2.74%. Regarding `O=P1(N(CCCl)CCCl)OCCCN1CCCl` (stereo not given), the inhibition was inactive: -9.5%.

For `Cc1cc(=O)[nH]c(N[N+](=O)[O-])n1`, the inhibition was inactive: -1.74%. The figure for `O=C(OC1CN2CCC1CC2)C12CC3CC(CC(C3)C1)C2` (stereo not given) is inactive: -7.16%; for `Cc1c2c(nc3ccccc13)SC(C(Cl)Cl)C2` (stereo not given) it is inactive: 1.11%; for `O=[N+]([O-])c1cc([N+](=O)[O-])c(-c2ccn[nH]2)s1` it is inactive: 2.02%. For the compound `O=C(OC1CN2CCC1CC2)c1cccc2[nH]cnc12` (stereo not given), the inhibition was inactive: -1.21%. On to `CCN(CC)C(=S)SC(NC=O)C(Cl)(Cl)Cl` (stereo not given), for which the inhibition was inactive: -10.4%.

Consider `CC(C)NC(=O)NP(=O)(Oc1ccccc1)Oc1ccccc1`, for which the inhibition was inactive: 1%.

Turning to `CC(C)c1ccc(OP(=O)(Nc2ccccn2)Oc2ccccc2F)cc1` (stereo not given), the inhibition was inactive: -4.64%. With `COC(=O)C1(C)COP(=O)(N2CCCCCC2)OC1` (stereo not given) the figure was inactive: -10.8%; with `ClCCSc1nnc(-c2cccnc2)o1`, inactive: -8.96%. Turning to `Cc1ccc2nc3c(c(C)c2c1)CC(C(Cl)Cl)S3` (stereo not given), the inhibition was inactive: -0.46%. The figure for `[N-]=[N+]=NC1CCCCC1NC(=O)c1cc([N+](=O)[O-])cc([N+](=O)[O-])c1` (stereo not given) is inactive: -1.02%. With `Cc1ccc(OP(=O)(Nc2ccc([N+](=O)[O-])cn2)Oc2ccc(C)cc2)cc1` the figure was inactive: -7.33%.

Take `COc1cc(C(=O)NCC2(N3CCOCC3)CCCCC2)ccc1OCC(C)C`: the inhibition was inactive: 3.7%. With `O=[N+]([O-])c1ccc(-c2cc([N+](=O)[O-])c(O)c([N+](=O)[O-])c2)cc1` the figure was inactive: -18.4%; with `C[As](=O)(O)c1cccc(C(=O)O)c1`, inactive: -1.62%; with `O=[As](O)(c1ccc(O)cc1)c1ccccc1O`, inactive: -2.5%. With `O=[N+]([O-])c1ccc(Nc2ccc(Oc3ccc([N+](=O)[O-])cc3[N+](=O)[O-])cc2)c([N+](=O)[O-])c1` the figure was inactive: 0.36%; with `O=P(Nc1ccccn1)(c1cccc2ccccc12)c1cccc2ccccc12`, inactive: -6.05%; with `Cc1cc(SC(NC=O)C(Cl)(Cl)Cl)ncn1` (stereo not given), inactive: -4.83%. On to `CCOC(=O)Nc1cccc([As](=O)(O)O)c1`, for which the inhibition is inactive: -3.08%. The figure for `Cc1cc(SC(NC(=O)c2ccccc2)C(Cl)(Cl)Cl)nc(C(C)C)n1` (stereo not given) is inactive: -3.39%; for `CCCCOc1ccc(C(=O)NCC2(N3CCCCC3)CCCCC2)cc1OC` it is inactive: 4.22%.

In the case of `COP(=O)(OC)N1CC1c1ccccc1` (stereo not given), the inhibition was inactive: -1.44%.

As for `CC1CCNP(=O)(N(CCCl)CCCl)O1` (stereo not given), the inhibition was inactive: 2.37%. The figure for `CCOC(=O)Nc1ccc([As](=O)(O)O)c(O)c1` is inactive: -2.15%; for `O=C(O)C(O)c1ccc(N(CCCl)CCCl)cc1` (stereo not given) it is inactive: -1.74%; for `CCC(C)N(CC(C)C)C(=S)SC(NC(C)=O)C(Cl)(Cl)Cl` (stereo not given) it is inactive: -0.35%. With `CCOC(=O)c1ccc(NC(=O)C(C)(CCl)SC)cc1` (stereo not given) the figure was inactive: 7.65%; with `CSc1ccc(Nc2c([N+](=O)[O-])cc([N+](=O)[O-])cc2[N+](=O)[O-])cc1`, inactive: 18.9%. With `O=C(OC1CN2CCC1CC2)c1cccc([N+](=O)[O-])c1` (stereo not given) the figure was inactive: 5.53%; with `O=C(Nc1ccncc1[N+](=O)[O-])c1ccc([N+](=O)[O-])cc1[N+](=O)[O-]`, inactive: 7.13%; with `O=C(COc1ccccc1)OC1CN2CCC1CC2` (stereo not given), inactive: -0.26%. Consider `O=C(O)C(=O)c1ccc(N(CCCl)CCCl)cc1`, for which the inhibition was inactive: -12.8%. The figure for `COC(=O)C1(C)COP(=O)(N2CCCC2)OC1` (stereo not given) is inactive: 13.8%; for `COP1(=S)c2c(C)nn(CCC#N)c2N=C(c2ccc(F)cc2)N1C` (stereo not given) it is inactive: 3.56%; for `CC1(CBr)Cn2c(nc3ccccc3c2=O)S1` (stereo not given) it is inactive: -3.02%.

Regarding `CC(C)/C=N\N=C(\N)N[N+](=O)[O-]`, the inhibition is inactive: 6.6%. As for `CN(C(=O)Cc1ccc(Cl)c(Cl)c1)[C@@H]1CCCC[C@H]1N1CCCC1`, the inhibition was inactive: -0.27%. The figure for `COc1ccccc1CNC(=O)COC(=O)C(O)(c1ccccc1)c1ccccc1` is inactive: -2.47%; for `CC(C)(C)C(=O)NC(Sc1ncccn1)C(Cl)(Cl)Cl` (stereo not given) it is inactive: 0.08%; for `O=P1(N(CCCl)CCCl)NCCC(C(F)(F)F)O1` (stereo not given) it is inactive: -1.85%. Take `Clc1n[nH]nc1-c1nn[nH][15n]1`: the inhibition was inactive: -4.59%. With `CN(CCCl)Cc1cc(Cl)c(NC2=NCCN2)c(Cl)c1` the figure was inactive: -6.49%; with `CCOP(=O)(Nc1ccc(C)cn1)OCC`, inactive: 3.36%. The figure for `CCOP(=O)(NC(=NC(C)c1ccccc1)NC(C)c1ccccc1)OCC` (stereo not given) is inactive: -5.49%.

Turning to `O=P1(Nc2ccccn2)COc2ccccc2OC1`, the inhibition was inactive: 5.42%. With `CCC1=CC2Cc3nc4ccc(Cl)cc4c(N)c3C(C1)C2` (stereo not given) the figure was inactive: 2.68%. Regarding `O=P1(Nc2ccc(Br)cn2)COc2ccccc2OC1`, the inhibition is inactive: -4.21%. With `NS(=O)(=O)c1cccc(NC(=O)COC(=O)C(O)(c2ccccc2)c2ccccc2)c1` the figure was inactive: -3.26%; with `O=[As](O)(c1cccs1)c1cccs1`, inactive: -6.81%. As to `Cc1ccc(OCC(=O)OC2CN3CCC2CC3)cc1` (stereo not given), the inhibition is inactive: -8.25%. The figure for `Nc1cccc([As](=O)(O)c2ccccc2)c1` is inactive: -2.3%; for `O=P1(Nc2ncccn2)COc2ccccc2OC1` it is inactive: -4.07%. With `Cc1ccc(S(=O)(=O)N(CCCN)CCCc2c(C)nc(N)[nH]c2=O)cc1` the figure was inactive: -0.24%; with `CCCC1OP(=O)(Nc2ccccc2)OCC1CC` (stereo not given), inactive: -4.99%; with `O=C(/C=C/c1ccccc1)OC1CN2CCC1CC2` (stereo not given), inactive: 2.36%. The figure for `CN(C)C1(CNC(=O)c2ccc(S(C)(=O)=O)cc2)CCCCC1` is inactive: -6.11%. `CC1CCC(C(C)C)C(OP(=O)(Nc2ccccn2)c2ccccc2)C1` (stereo not given): the inhibition was inactive: -0.78%.
